Experimental data reported in patent publication US6809101B2, “Compounds having anti-hepatitis C virus effect” (priority 2000, dated 2004).
Structures were worked out from names or drawings and are uncertain.

Sequences of proteins named here, by UniProt entry; tags and fusion partners are left off. Residues count along the entry.
UniProt P19711, 3270-3988 limits assumed: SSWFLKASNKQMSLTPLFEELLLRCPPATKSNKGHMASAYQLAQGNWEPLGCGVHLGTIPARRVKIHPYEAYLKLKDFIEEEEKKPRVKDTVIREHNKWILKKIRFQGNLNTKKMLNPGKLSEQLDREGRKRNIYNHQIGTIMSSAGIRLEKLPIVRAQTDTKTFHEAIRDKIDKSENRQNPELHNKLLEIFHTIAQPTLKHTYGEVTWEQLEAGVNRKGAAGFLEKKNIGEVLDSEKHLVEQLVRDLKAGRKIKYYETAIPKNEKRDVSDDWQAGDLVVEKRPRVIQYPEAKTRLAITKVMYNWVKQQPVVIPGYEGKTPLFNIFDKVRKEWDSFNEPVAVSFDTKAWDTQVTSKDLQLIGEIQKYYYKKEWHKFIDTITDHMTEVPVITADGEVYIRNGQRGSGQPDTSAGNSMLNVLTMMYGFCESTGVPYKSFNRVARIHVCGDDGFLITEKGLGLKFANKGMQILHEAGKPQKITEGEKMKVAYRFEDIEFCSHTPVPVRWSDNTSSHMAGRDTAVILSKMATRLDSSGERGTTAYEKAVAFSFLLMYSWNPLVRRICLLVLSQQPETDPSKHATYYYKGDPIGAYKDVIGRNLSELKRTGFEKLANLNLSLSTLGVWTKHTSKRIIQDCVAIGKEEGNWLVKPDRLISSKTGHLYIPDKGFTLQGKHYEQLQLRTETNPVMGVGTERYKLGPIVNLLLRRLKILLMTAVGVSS
UniProt P27958, 2421-3011 limits assumed: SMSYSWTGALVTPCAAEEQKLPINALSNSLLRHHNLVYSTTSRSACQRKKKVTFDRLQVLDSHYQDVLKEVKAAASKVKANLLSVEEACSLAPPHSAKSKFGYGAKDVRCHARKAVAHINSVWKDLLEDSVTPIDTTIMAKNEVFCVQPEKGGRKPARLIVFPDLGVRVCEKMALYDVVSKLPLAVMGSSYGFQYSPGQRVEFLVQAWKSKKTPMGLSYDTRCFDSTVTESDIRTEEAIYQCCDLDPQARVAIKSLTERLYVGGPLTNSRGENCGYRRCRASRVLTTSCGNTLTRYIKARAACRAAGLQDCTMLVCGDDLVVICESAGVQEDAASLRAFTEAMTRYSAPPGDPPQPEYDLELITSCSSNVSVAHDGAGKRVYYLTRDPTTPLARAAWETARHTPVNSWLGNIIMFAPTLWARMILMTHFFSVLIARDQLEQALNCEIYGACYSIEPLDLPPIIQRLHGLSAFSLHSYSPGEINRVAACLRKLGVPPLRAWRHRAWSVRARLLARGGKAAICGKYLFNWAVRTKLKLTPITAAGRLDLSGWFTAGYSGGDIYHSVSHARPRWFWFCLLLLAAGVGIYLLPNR

Key:
[1] = target: RNA-dependent RNA polymerase (RdRp) of bovine virus diarrhea virus (BVDV) (Bovine viral diarrhea virus, UniProt P19711); test: Inhibitory activity against BVDV RNA-dependent RNA polymerase (Experiment Example 2); conditions: Experimental example 2; same way as experiment example 1
Source text: Inhibitory Activity Against BVDV RNA-Dependent RNA Polymerase
Inhibitory activity against RNA-dependent RNA polymerase (RdRp) of bovine virus diarrhea virus (BVDV) was experimented too in the same way in experiment example 1.

[2] = target: HCV RNA-dependent RNA polymerase (UniProt P27958); test: Inhibitory activity against HCV RNA-dependent RNA polymerase (Experiment Example 1); conditions: Experimental example 1; poly(A) template, oligo(U)12 primer, 3H-UTP substrate, enzyme reaction 25° C. for 30 min
Source text: Inhibitory Activity Against HCV RNA-Dependent RNA Polymerase
(1) Preparation of Hepatitis C Virus (HCV) RNA-Dependent RNA Polymerase
It was collected several cDNA clones of HCV RNA-dependent RNA polymerase from plasma of people infected with HCV, RNA-dependent RNA polymerase was expressed by using insect cell or E. coli from these clones. RNA-dependent RNA polymerase in cell extract was purified by anion-exchange chromatography, heparin-affinity chromatography, poly U-affinity chromatography, cation-exchange chromatography, gel filtration chromatography, and the like. The preparation was done at about 4° C. under low temperature condition, as solution dissolving enzyme was used Tris buffer (pH 7.5) containing ethylenediamine tetraacetic acid (1 mM), dithiothreitol (10 mM), and glycerol (20%). The purified enzyme was kept at 4° C. or −20° C. until it was used for assay.
(2) Method of HCV RNA-Dependent RNA Polymerase Assay […]
(8) Radioactivity was measured by using scintillation counter.
(9) The percentage of inhibition was calculated by replacing the measured value of radioactivity (unit; ccpm) into the following expression.
The percentage of inhibition=100−(the measured value in presence of test compound−the measured value in absence of enzyme)÷(the measured value in absence of test compound−the measured value in absence of enzyme)×100. […]

For `Cc1cnoc1C(O)=C1SC(=S)NC1=O` [Compound I-27, 5-[1-Hydroxy-1-(4-methylisoxazol-5-yl)]methylene-2-thioxothiazolidin-4-one], the “IC50 for BVDV RdRp” value [1] was 24 µg/mL and the “IC50 for HCV RdRp” value [2] was 7.1 µg/mL.
